The text below walks through data of US20220168221A1 (priority 2020, published 2022).

Where two headings read alike, the source gives them in different places.

For data set [1], the system named is Coccidioides posadasii. The data set is classed as in vivo.
Data set [2] relates to Coccidioides. As to conditions: reported and anticipated; cited from earlier work.
Data set [3] can be described thus: Mouse weights, drinking and clinical observation in Study 1.
Data set [4] has as its system Coccidioides posadasii strain Silveira (ATCC 28868). The data set is classed as in vivo. The settings on record: about 200 arthroconidia IV, 200 mg/kg/day (and higher).

Regarding `OC(Cn1cncn1)(Cn1cncn1)c1ccc(F)cc1F` [FCZ, fluconazole, reference compound], the survival entry in data set [1] (100 mg/kg/day, FIG. 3E) is “survived to the end of the brief study period”. Besides, the protection result in data set [1] (100 mg/kg/day, qd) is recorded as “only slight protection”.

With `C[C@@H]([C@H](N)C(=O)N[C@H](C(=O)O)[C@H]1O[C@@H](n2ccc(=O)[nH]c2=O)[C@H](O)[C@@H]1O)[C@H](O)c1ccc(O)cn1` [nikZ, nikkomycin Z], in data set [2], the “expected MEC (minimum effective concentration)” value was 62.5 ng/mL. In data set [1] (8 mg/kg/day DiW), the improvement of disease entry is listed as “some improvement”. Further, the survival is 80% in data set [1] (30.6 mg/kg/day) and “all higher doses survived” in data set [1] (doses higher than 134 mg/kg/day). Further, the “inhibition of fungal proliferation” value in data set [1] (408 mg/kg/day (target was 600)) was “pretty much maximal inhibition of fungal proliferation”. Further, the “losses (survival curve)” value in data set [1] (8.4, 30.6 and 134 mg/kg/day) is “decreasing losses”. In data set [1] (about 1000 arthroconidia, 20 mg/kg/day), the therapeutic benefit result was “showed therapeutic benefit”. For the same compound, the reduction of disease is on record as roughly 75% in data set [1] (about 1000 arthroconidia, 150 mg/kg/day) and 90% in data set [1] (about 1000 arthroconidia, 400 mg/kg/day). Moreover, the “efficacy compared with FCZ 100 mg/kg/day” value in data set [1] (all levels of nikZ) was “more effective than this reference dose of FCZ”. Further, the “reduction in disseminated disease” value in data set [1] (most severe challenge, roughly 78 mg/kg/day in a mouse, 5 days of therapy) is “about 50%”. Also, the “% gain (weight)” value in data set [3] (PO 600 mg/kg/day, 600 mg/kg/day) stood at 9.4%; in data set [3] (PO 2000 mg/kg/day, 2000 mg/kg/day), 14.4%. Moreover, the “protection from residual infection” value in data set [4] was “almost completely protected”.
